Our source for the Kd values is US20170198014A1 (UNIVERSITY WASHINGTON THROUGH ITS CENTER FOR …, published 2017).

What is called Kd is the free concentration of one partner at which half of the binding sites on the other are occupied at equilibrium, for simple one-to-one binding. Low readings indicate higher affinity, high ones lower affinity.

For test [1], the target named is hemagglutinin H3 (A/Hong Kong/1/1968-H3N2) (influenza A virus A/Hong Kong/1/1968 …, UniProt Q91MA7 27-521). Nature of the test: BLI (FIG. 4); monovalent version.
Test [2] has as its target hemagglutinin H2 A/Japan/305/1957 (influenza A virus A/Japan/305/1957 (H2), UniProt P03451 16-516). Nature of the test: BLI (Octet), biotinylated HA on streptavidin sensors. (In general: Biolayer interferometry detects binding as a change in optical thickness at a sensor tip.)

B1: Hsc1, monovalent version (designed binder)
chain: GIVNVPNCNTTKYQQLARTAVAIYNYHEQAHLTFVENLNCKEQLGEGDYYYITLAATDDAGKKAIYEAKIGVVESAGWTGVEEFKLV
The molecule B1 registered a Kd in test [1] of 31.2 nM.

B2: Hsc1 (SEQ ID NO:135) fused to HAA.1c (SEQ ID NO:227) via the triLong linker (SEQ ID NO: 352), trimer (designed binder)
chain: MEEVVLITVPSEEVARTIAKALVEERLAACVNIVPGLTSIYRWQGEVVEDQELLLLVKTTTHAFPKLKERVKALHPYTVPEIVALPIAQGNQEYLDWLRENAGGGGSGGSGIVNVPNCNTTKYQQLARTAVAIYNYHEQAHLTFVENLNCKEQLGEGDYYYITLAATDDAGKKAIYEAKIGVVESAGWTGVEEFKLV
In test [2], B2 gave a Kd of 4.8 nM.
